Results of unrelated studies side by side (data: NIAID ChemDB).

Shared fields: growth or infection tests; organism: Mycobacterium avium complex

ECn: concentration that inhibits the pathogen or its effect by n%.

SMILES | strain or isolate | cell line | read-out | result
CN1CCN(c2c(F)cc3c(=O)c(C(=O)O)cn(CCF)c3c2F)CC1 | - | - | MIC90 | 50 µg/mL
C[C@@H]1CN(c2c(F)c(N)c3c(=O)c(C(=O)O)cn(C4CC4)c3c2F)C[C@H](C)N1 | ATCC 15769 | - | MBC | 1 µg/mL
NC[C@@H]1O[C@H](O[C@H]2[C@@H](O)[C@H](O[C@@H]3[C@@H](O)[C@H](N)C[C@H](N)[C@H]3O[C@H]3O[C@H](CN)[C@@H](O)[C@H](O)[C@H]3N)O[C@@H]2CO)[C@H](N)[C@@H](O)[C@@H]1O | 25 isolates | - | MBC90 | >64 µg/mL
CC1(C)N=C(N)N=C(N)N1OCCCOc1cc(Cl)c(Cl)cc1Cl | 1409 | - | MIC | 1 µg/mL
CN[C@@H]1[C@H](O[C@H]2[C@H](O[C@H]3[C@H](O)[C@@H](O)[C@H](N=C(N)N)[C@@H](O)[C@@H]3N=C(N)N)O[C@@H](C)[C@]2(O)C=O)O[C@@H](CO)[C@H](O)[C@H]1O | 25 isolates | - | MBC90 | >64 µg/mL
Nc1ccc(S(=O)(=O)c2ccc(N)cc2)cc1 | DW30 | - | MIC | 32 µg/mL
CCCCCCCCO/N=C1\[C@H](C)CC(C)(O)[C@H](O[C@@H]2O[C@H](C)C[C@H](N(C)C)[C@H]2O)[C@@H](C)[C@H](OC2C[C@@](C)(OC)[C@@H](O)[C@H](C)O2)[C@@H](C)C(=O)O[C@H](CC)[C@@](C)(O)[C@H](O)[C@H]1C | 20039 (clarithromycin-susceptible) | - | MIC | 3.13 µg/mL
CO[C@H]1/C=C/O[C@@]2(C)Oc3c(C)c(O)c4c(=O)c(c5oc6cc(N7CCN(CC(C)C)CC7)cc(=O)c6nc5c4c3=C2O)NC(=O)/C(C)=C\C=C\[C@H](C)[C@H](O)[C@@H](C)[C@@H](O)[C@@H](C)[C@H](OC(C)=O)[C@@H]1C | N-444 | - | MBC | >4 µg/mL
CC(=O)NC[C@H]1CN(c2ccc(N3CCN(Cc4ccc([N+](=O)[O-])o4)CC3)c(F)c2)C(=O)O1 | 31 isolates | - | Geometric mean MIC | 7.823 µg/mL
CC[C@H]1OC(=O)[C@H](C)[C@@H](O[C@H]2C[C@@](C)(OC)[C@@H](O)[C@H](C)O2)[C@H](C)[C@@H](O[C@@H]2O[C@H](C)C[C@H](N(C)C)[C@H]2O)[C@](C)(OC)C[C@@H](C)C(=O)[C@H](C)[C@@H](O)[C@]1(C)O | N-444 | - | MBC | 32 µg/mL
CC[C@H]1OC(=O)[C@H](C)[C@@H](O[C@H]2C[C@@](C)(OC)[C@@H](OC(C)=O)[C@H](C)O2)[C@H](C)[C@@H](O[C@@H]2O[C@H](C)C[C@H](N(C)C)[C@H]2OC(=O)NNCc2ccc([N+](=O)[O-])cc2)C(C)(O)C[C@@H](C)/C(=N\OCCCC2CCCCC2)[C@H](C)[C@@H](O)[C@]1(C)O | 20092 (clarithromycin-resistant) | - | MIC | 3.13 µg/mL
CC1(C)N=C(N)N=C(N)N1OCCCOc1cc(Cl)c(Cl)cc1Cl | DW18 | - | MIC | 1 µg/mL
CCN=c1cc2n(-c3ccc(Cl)cc3)c3ccccc3nc-2cc1Nc1ccc(Cl)cc1 | 715 | - | MBC | 64 µg/mL
NC[C@H]1O[C@H](O[C@H]2[C@H](O)[C@@H](O[C@H]3O[C@H](CO)[C@@H](O)[C@H](N)[C@H]3O)[C@H](N)C[C@@H]2N)[C@H](O)[C@@H](O)[C@@H]1O | 25 isolates | - | MBC90 | >64 µg/mL
CC[C@H]1OC(=O)[C@H](C)[C@@H](O[C@H]2C[C@@](C)(OC)[C@@H](OC(C)=O)[C@H](C)O2)[C@H](C)[C@@H](O[C@@H]2O[C@H](C)C[C@H](N(C)C)[C@H]2OC(=O)NN2CCCC2)C(C)(O)C[C@@H](C)/C(=N\OCCCC2CCCCC2)[C@H](C)[C@@H](O)[C@]1(C)O | 20092 (clarithromycin-resistant) | - | MIC | 3.13 µg/mL
N[C@@H]1CN(c2c(F)cc3c(=O)c(C(=O)O)cn([C@@H]4C[C@@H]4F)c3c2Cl)CC12CC2 | 101 | Macrophages | EC50 | <10 µg/mL
CC[C@H]1OC(=O)[C@H](C)[C@@H](OC2C[C@@](C)(OC)[C@@H](O)[C@H](C)O2)[C@H](C)[C@@H](O[C@@H]2O[C@H](C)C[C@H](N(C)C)[C@H]2O)C(C)(O)C[C@@H](C)/C(=N\OCCCCOc2ccccc2)[C@H](C)[C@@H](O)[C@]1(C)O | 20039 (clarithromycin-susceptible) | - | MIC | 1.56 µg/mL
CC[C@H]1OC(=O)[C@H](C)[C@@H](O[C@H]2C[C@@](C)(OC)[C@@H](O)[C@H](C)O2)[C@H](C)[C@@H](O[C@@H]2O[C@H](C)C[C@H](N(C)C)[C@H]2O)[C@](C)(OC)C[C@@H](C)C(=O)[C@H](C)[C@@H](O)[C@]1(C)O | 20 isolates | - | Median MIC | ≤2 µg/mL
CCCCCCCCCCCCC(=O)O[C@H]1[C@H](C)OC(O[C@H]2[C@H](C)[C@@H](O[C@@H]3O[C@H](C)C[C@H](N(C)C)[C@H]3O)C(C)(O)C[C@@H](C)/C(=N\OCCCOc3ccccc3)[C@H](C)[C@@H](O)[C@](C)(O)[C@@H](CC)OC(=O)[C@@H]2C)C[C@@]1(C)OC | 20039 (clarithromycin-susceptible) | - | MIC | >50 µg/mL
CC(C)N=c1cc2n(-c3ccc(Cl)cc3)c3ccccc3nc-2cc1Nc1ccc(Cl)cc1 | 453 | - | MBC | 16 µg/mL
CC[C@H]1OC(=O)[C@H](C)[C@@H](O[C@H]2C[C@@](C)(OC)[C@@H](OC(C)=O)[C@H](C)O2)[C@H](C)[C@@H](O[C@@H]2O[C@H](C)C[C@H](N(C)C)[C@H]2O)C(C)(O)C[C@@H](C)/C(=N\OCCCC2CCCCC2)[C@H](C)[C@@H](O)[C@]1(C)O | 20039 (clarithromycin-susceptible) | - | MIC | 1.56 µg/mL
COc1c(N2CCNC(C)C2)c(F)cc2c(=O)c(C(=O)O)cn(C3CC3)c12 | 18 strains | - | MIC90 | 12.5 µg/mL

2 of the rows above, restated:

NC[C@@H]1O[C@H](O[C@H]2[C@@H](O)[C@H](O[C@@H]3[C@@H](O)[C@H](N)C[C@H](N)[C@H]3O[C@H]3O[C@H](CN)[C@@H](O)[C@H](O)[C@H]3N)O[C@@H]2CO)[C@H](N)[C@@H](O)[C@@H]1O ; strain or isolate: 25 isolates ; read-out: MBC90 ; result: >64 µg/mL
C[C@@H]1CN(c2c(F)c(N)c3c(=O)c(C(=O)O)cn(C4CC4)c3c2F)C[C@H](C)N1 ; strain or isolate: ATCC 15769 ; read-out: MBC ; result: 1 µg/mL

MIC50, MIC90 and the like: level of inhibition, or share of isolates inhibited. An empty or dashed field is not shown. Lines come from different laboratories, so protocols vary.